A mixed list of measured activities; the numbers were collected in NIAID ChemDB.

Shared fields: tests on isolated targets

An empty or dashed field is not shown. ICn: concentration for n% inhibition. a–b is a range or a potency band. Percent inhibition refers to the dose given; in toxicity tests it is the harm to the cells. Rows are shuffled and stem from different studies.

smiles	organism	strain or isolate	protein	measure	dose	value
COc1cc(NCc2c(Br)sc3nc(N)nc(N)c23)cc(OC)c1OC	Cryptosporidium parvum	TYPE 1	Dihydrofolate reductase	IC50	-	>10 µM
CC(C(=O)O)N(c1cc(-c2ccccc2)sc1C(=O)O)S(=O)(=O)c1ccc(Cl)cc1Cl	Hepatitis C virus	-	NS3 ATPase	IC50	-	<5 µM
c1ccc(N2CCN(c3cncc(-c4cccs4)n3)CC2)nc1	Cytomegalovirus	-	UL97 kinase	inhibition	10 µM	>15%
O=C1NC(=S)SC1=Cc1ccc(-c2cccs2)s1	Bovine viral diarrhea virus	-	NS5 polymerase	IC50	-	≤1 µM
Cc1ccccc1S(=O)(=O)Nc1cc(C#Cc2ccccc2)sc1C(=O)O	Hepatitis C virus	-	NS3 ATPase	IC50	-	<5 µM
Nc1nc(N)c2nc(CN(c3ccccc3)c3ccccc3)cnc2n1	Cryptosporidium parvum	TYPE 2	Dihydrofolate reductase	IC50	-	>10 µM
CSc1ccc(-c2cncc(N3CCN(c4ccc(F)cc4F)CC3)n2)cc1	Cytomegalovirus	-	UL97 kinase	IC50	-	<10 µM
CN(Cc1ccc2nc(N)nc(N)c2n1)c1ccc(C(=O)N2CCOCC2)cc1	Cryptosporidium parvum	TYPE 1	Dihydrofolate reductase	IC50	-	0.65 µM
O=C(Nc1cc(-c2ccccc2)sc1C(=O)O)c1ccc(Cl)cc1	Hepatitis C virus	-	NS3 ATPase	IC50	-	5–20 µM
COc1ccc(CC2CCc3nc(N)nc(N)c3C2)cc1	Cryptosporidium parvum	TYPE 1	Dihydrofolate reductase	IC50	-	1.1 µM
CC(=O)c1ccc(N2CCN(c3cncc(-c4cccc(F)c4)n3)CC2)cc1	Cytomegalovirus	-	UL97 kinase	IC50	-	<100 µM
COc1cc(CCN2CCc3nc(N)nc(N)c3C2)cc(OC)c1OC	Cryptosporidium parvum	TYPE 1	Dihydrofolate reductase	IC50	-	>10 µM
Cc1cccc(N2CCN(c3cncc(-c4ccoc4)n3)CC2)c1C	Cytomegalovirus	-	UL97 kinase	IC50	-	<100 µM
Cc1ccccc1S(=O)(=O)Nc1cc(-c2ccc(Cl)c(Cl)c2)sc1C(=O)O	Hepatitis C virus	-	NS3 ATPase	IC50	-	5–20 µM
Cc1ccnc(C=C2SC(=S)N(c3ccc(C(=O)O)cc3)C2=O)c1	Bovine viral diarrhea virus	-	NS5 polymerase	IC50	-	≤1 µM
Cc1cccc(-c2cncc(N3CCN(c4ccccn4)CC3)n2)c1	Cytomegalovirus	-	UL97 kinase	inhibition	10 µM	>15%
O=C(O)c1ccc(N2C(=O)C(=Cc3ccc(-c4ccccc4)o3)SC2=S)cc1	Bovine viral diarrhea virus	-	NS5 polymerase	IC50	-	≤1 µM
FC1(c2cncc(N3CCN(c4cnccn4)CC3)n2)C=CC(c2ccccc2)=CC1	Cytomegalovirus	-	UL97 kinase	inhibition	10 µM	>15%
O=C(O)c1ccc(N2C(=O)C(=Cc3ccc(-c4ccc5c(c4)OCO5)o3)SC2=S)cc1	Bovine viral diarrhea virus	-	NS5 polymerase	IC50	-	≤1 µM
COc1ccc(OC)c(CCc2sc3nc(N)nc(N)c3c2C)c1	Cryptosporidium parvum	TYPE 2	Dihydrofolate reductase	IC50	-	>10 µM
COc1ccccc1N1CCN(c2cncc(-c3ccsc3)n2)CC1	Cytomegalovirus	-	UL97 kinase	inhibition	10 µM	>15%
O=C(O)CCN1C(=O)C(=Cc2ccc(-c3cc(C(F)(F)F)cc(C(F)(F)F)c3)o2)SC1=S	Bovine viral diarrhea virus	-	NS5 polymerase	IC50	-	≤1 µM

Again, the opening 3 rows:

smiles,organism,strain or isolate,protein,measure,dose,value
COc1cc(NCc2c(Br)sc3nc(N)nc(N)c23)cc(OC)c1OC,Cryptosporidium parvum,TYPE 1,Dihydrofolate reductase,IC50,-,>10 µM
CC(C(=O)O)N(c1cc(-c2ccccc2)sc1C(=O)O)S(=O)(=O)c1ccc(Cl)cc1Cl,Hepatitis C virus,-,NS3 ATPase,IC50,-,<5 µM
c1ccc(N2CCN(c3cncc(-c4cccs4)n3)CC2)nc1,Cytomegalovirus,-,UL97 kinase,inhibition,10 µM,>15%